# Share of PSTVd loop 6 variants by leaf site

The pool varies loop 6 of the PSTVd intermediate strain in the pattern UNNNCGNNNG; wild type is UGACCGCGAG (upper and lower strand joined, each 5' to 3', the first 5 letters being the upper strand, closing pairs included).

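A pool of all variants was put on leaves of three Nicotiana benthamiana plants. Samples came from the inoculated region at 5 days, the leaf margin at 10 and upper systemic leaves at 12.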

Numbers give reads per thousand; 0 = not seen among the reads, higher = more abundant.
Each site shows the three plants.
"Pool" is the share in the plasmid pool used as inoculum, on the same scale.
The inoculated region was read from the minus strand, the other sites from the plus strand.
IR is the inoculated region, LM the leaf margin, Sys the systemic leaves.
The authors trace changes outside the varied positions to PCR and sequencing errors or to mutation in the plant; presence does not show that a variant is infectious alone.
For reference, wild type rose from 20.7 per thousand in the pool to 195, 198, 203 (inoculated region), 629, 591, 734 (leaf margin) and 942, 870, 868 (systemic leaves).
Samples held 36,220 to 57,551 reads, so the smallest values rest on one or two reads.

sequence,pool,IR,LM,Sys
UCCGCGACCG,0.235,0.139 0.0719 0.0184,0.0276 0 0.0232,0 0 0
UCCGCGACGG,0.183,0.0521 0.0898 0.0738,0 0 0,0 0 0
UCCGCGACUG,0.340,0.122 0.0719 0.0922,0 0 0,0 0 0
UCCGCGAGAG,0.248,0.0695 0.0539 0.0922,0 0 0,0 0 0
UCCGCGAGCG,0.170,0.0869 0.0539 0,0 0 0,0 0 0
UCCGCGAGGG,0.170,0.0695 0.0719 0.0922,0 0 0,0 0 0
UCCGCGAGUG,0.209,0.104 0.0898 0.0738,0 0 0,0 0 0
UCCGCGAUAG,0.275,0.0695 0.0539 0.0738,0 0 0.325,0 0 0.0205
UCCGCGAUCG,0.301,0.104 0.0719 0.0184,0 0 0,0 0 0
UCCGCGAUGG,0.314,0.122 0.162 0.0922,0.0276 0 0,0 0 0
UCCGCGAUUG,0.275,0.0174 0.0719 0.0922,0 0 0.0232,0 0 0
UCCGCGCAAG,0.183,0.174 0.162 0.184,0 0 0,0 0 0
UCCGCGCACG,0.209,0.104 0.0539 0.0184,0 0 0,0 0 0
UCCGCGCAGG,0.222,0.0869 0.0719 0.111,0.0276 0 0.0232,0 0 0
UCCGCGCAUG,0.157,0.0695 0.0719 0.0922,0 0 0,0 0 0
UCCGCGCCAG,0.183,0.191 0.0898 0.0922,0 0 0.0232,0 0 0
UCCGCGCCCG,0.222,0.0869 0.0539 0.0922,0 0 0,0 0 0
UCCGCGCCGG,0.248,0.0869 0.0539 0.129,0.0552 0 0.0232,0 0 0
UCCGCGCCUG,0.183,0.0869 0.0359 0.0553,0 0 0.0232,0 0 0
UCCGCGCGAG,0.222,0.122 0.0898 0.0553,0.0276 0.0252 0,0.0359 0 0.0205
UCCGCGCGCG,0.209,0.139 0.126 0.0369,0 0 0,0 0 0
UCCGCGCGGG,0.196,0.139 0.0719 0.0369,0 0 0,0 0 0
UCCGCGCGUG,0.170,0.139 0.0898 0.111,0 0 0,0 0 0
UCCGCGCUAG,0.131,0.122 0.144 0.111,0.0276 0 0.0464,0 0 0
UCCGCGCUCG,0.261,0.0869 0.0898 0.0922,0 0 0.0464,0 0 0
UCCGCGCUGG,0.170,0.0695 0.0539 0.0738,0 0 0,0 0 0
UCCGCGCUUG,0.261,0.0869 0.216 0.129,0 0 0,0 0 0
UCCGCGGAAG,0.0784,0.0521 0.0719 0.0553,0 0 0,0 0 0
UCCGCGGACG,0.196,0.0348 0.0359 0.0369,0 0 0,0 0 0
UCCGCGGAGG,0.183,0.0521 0.0719 0.0922,0 0 0,0 0 0
UCCGCGGAUG,0.183,0.0869 0.126 0.0738,0.0276 0 0,0 0 0
UCCGCGGCAG,0.314,0.122 0.0719 0.0738,0 0 0,0 0 0
UCCGCGGCCG,0.131,0.174 0.0180 0.0738,0 0 0.0232,0 0 0
UCCGCGGCGG,0.157,0.0695 0.126 0.0922,0.0276 0 0.0232,0 0 0
UCCGCGGCUG,0.222,0.0521 0.0719 0.0922,0 0 0.0464,0 0 0
UCCGCGGGAG,0.131,0.0869 0.144 0.111,0 0 0,0 0 0

Excerpt, the final 3 entries:

* UCCGCGGCGG (pool 0.157): IR 0.0695 0.126 0.0922; LM 0.0276 0 0.0232; Sys 0 0 0
* UCCGCGGCUG (pool 0.222): IR 0.0521 0.0719 0.0922; LM 0 0 0.0464; Sys 0 0 0
* UCCGCGGGAG (pool 0.131): IR 0.0869 0.144 0.111; LM 0 0 0; Sys 0 0 0

The measurements come from Wu et al. 2024 (doi:10.1371/journal.ppat.1012142).